Compound potency records, mixed from different reports. Data source: NIAID ChemDB in PubChem.

All rows: tests in culture; agent: HIV-1; cell line: MT-2; read-out: EC50

a–b is a range or a potency band. ECn is the concentration giving n% inhibition of infection, replication or growth. An empty or dashed field is not shown. Neighbouring rows are from separate reports.

structure | strain | changes | method | setting | result
C[C@@H]1O[C@](C#CC2CC2)(C(F)(F)F)c2cc(F)ccc2NC1=O | RF |  |  |  | <0.0052 µM
CC(C)C1=C2[C@H]3CC[C@@H]4[C@@]5(C)CC[C@H](OC(=O)[C@H]6C[C@@H](C(=O)O)C6(C)C)C(C)(C)[C@@H]5CC[C@@]4(C)[C@]3(C)CC[C@@]2([C@@H](O)CNCc2ccc(Cl)cc2OCCN2CCCC2)CC1=O | 92HT599 |  | p24 / ELISA |  | <1 µM
O=C1Nc2ccc(Cl)cc2[C@@](C#CC2CC2)(C(F)(F)F)[C@H]1OCc1ccccn1 | RF |  |  |  | <0.14 µM
Nc1ncn([C@H]2CO[C@H](CO)O2)c(=O)n1 | IIIB |  | cytopathic effect / MTT |  | >100 µM
CC(C)C1=C2[C@H]3CC[C@@H]4[C@@]5(C)CC[C@H](OC(=O)[C@H]6C[C@@H](C(=O)O)C6(C)C)C(C)(C)[C@@H]5CC[C@@]4(C)[C@]3(C)CC[C@@]2([C@@H](O)CNCC(CCN)NC(=O)c2ccc(Cl)cc2)CC1=O | 92HT599 |  | p24 / ELISA |  | <1 µM
CNC(=O)c1c(O)c2ncc(Cc3ccc(F)cc3)c3c2n(c1=O)C[C@](C)(c1nnc(C)o1)O3 | IIIB |  |  |  | 0.0034 µM
CNC(=O)NC[C@H]1O[C@@H](n2cnc3c(NC(=O)Nc4ccccc4)ncnc32)[C@H](O[Si](C)(C)C(C)(C)C)[C@@H]1CC(=O)N(C)OC | LAI |  | cytopathic effect / neutral red |  | >17 µM
CC(C)C1=C2[C@H]3CC[C@@H]4[C@@]5(C)CC[C@H](OC(=O)[C@H]6C[C@@H](C(=O)O)C6(C)C)C(C)(C)[C@@H]5CC[C@@]4(C)[C@]3(C)CC[C@@]2(CC(=O)NC(F)(CCN)CNC(=O)c2ccc(Cl)cc2)CC1=O | 92HT599 |  | p24 / ELISA |  | <1 µM
O=C(Nc1cc(NC(=O)c2ccccc2)cc(-c2nc3ccccc3c(=O)o2)c1)c1ccccc1 | IIIB |  | p24 |  | >10 µM
Nc1nc(NC2CC2)c2ncn([C@H]3C=C[C@@H](CO)C3)c2n1 | Clinical isolate | M184V | recombinant virus assay |  | 0.308 µM
CC(C)C1=C2[C@H]3CC[C@@H]4[C@@]5(C)CC[C@H](OC(=O)[C@H]6C[C@@H](C(=O)O)C6(C)C)C(C)(C)[C@@H]5CC[C@@]4(C)[C@]3(C)CC[C@@]2([C@@H](O)CNCc2cccc(Cl)c2)CC1=O | 92HT599 |  | p24 / ELISA |  | <1 µM
O=C1Nc2ccc(Cl)cc2[C@@](/C=C/C2CC2)(C(F)(F)F)N1 | RF |  |  |  | <0.0021 µM
CCCCCCCCCCCCCCCCCCOCCOP(=O)(O)CO[C@H](CO)Cn1cnc2c(N)ncnc21 |  | RT-M184V | p24 |  | 0.00004 µM
CC[C@@H]1O[C@](C#CC2CC2)(C(F)(F)F)c2cc(Cl)ccc2NC1=O | RF |  |  |  | <0.0084 µM
CC(=O)O[C@H]1CC[C@H](O)CC[C@@H](C)/C=C/[C@@]2(C)CC[C@@H](C(C)(C)OC(C)=O)[C@H]12 |  |  | cytopathic effect / MTT |  | 4.1 µM
Nc1nc(Cl)c2ncn([C@H]3C=C[C@@H](CO)C3)c2n1 | IIIB |  | cytopathic effect |  | 0.4 µg/mL
CC[C@@H]1O[C@](/C=C/C2CC2)(C(F)(F)F)c2cc(Cl)ccc2NC1=O | RF |  |  |  | <0.0078 µM
CCCO[C@H]1C(=O)Nc2ccc(Cl)cc2[C@@]1(C#CC1CC1)C(F)(F)F | RF |  |  |  | <0.062 µM
Cc1nn([C@H]2CO[C@H](CO)O2)c(=O)[nH]c1=O | IIIB |  | cytopathic effect / MTT |  | >100 µM
[N-]=[N+]=NC[C@H]1O[C@@H](n2cnc3c(NC(=O)Nc4ccccc4)ncnc32)[C@@H]2OC(=O)C[C@@H]21 | LAI |  | cytopathic effect / neutral red |  | >19 µM
Cc1nn(C)c(C)c1CN(C)C(=O)C(=O)NC12CCC(CC1)Cn1c2nc(C(=O)NCc2ccc(F)cc2)c(O)c1=O | NL4-3 | (delta)nef | luciferase | pseudotyped | <0.01 µM
Cc1cc(C#CCOCCOCCOCC#Cc2cn(C3C=CC(COP(=O)(O)O)O3)c(=O)[nH]c2=O)cc(C)c1Oc1ccnc(Nc2ccc(C#N)cc2)n1 | IIIB |  | MTT / absorbance |  | ~0.025 nM
CCCCCCCCCCCCCCCCOCCCOP(=O)(O)CO[C@H](CO)Cn1cnc2c(N)ncnc21 |  | RT-K65R | p24 |  | 0.16 µM
NC1=NCN([C@H]2C[C@H](O)[C@@H](CO)O2)C(=O)N1 | LAI |  |  |  | 3 µM
Cc1cc(F)cnc1CNC(=O)c1nc2n(c(=O)c1O)CC1CCC2(NC(=O)C(=O)N(C)C)CC1 | NL4-3 | (delta)nef | luciferase | pseudotyped | 0.01–0.1 µM
CCC#C[C@]1(C(F)(F)F)OCC(=O)Nc2ccc(Cl)cc21 | RF |  |  |  | <0.0091 µM
COc1ccc(-c2cc(C(=O)Nc3ccc(S(=O)(=O)Nc4cc(C)nc(C)n4)cc3)c3ccccc3n2)cc1 | IIIB |  | p24 |  | >10 µM
O=C1Nc2ccc(Cl)cc2[C@@](C#CC2CC2)(C(F)(F)F)[C@H]1OCC1CC1 | RF |  |  |  | >0.13 µM
Nc1nc(=O)n([C@@H]2CC[C@H](CO)O2)cc1F | IIIB |  | cytopathic effect / MTT |  | <1.2 µM
Nc1nc(N)c2ncn([C@H]3C=C[C@@H](CO)C3)c2n1 | IIIB |  | cytopathic effect |  | 4.7 µg/mL
CC(=O)O[C@H]1CC[C@@H](O)CC[C@@H](C)/C=C/[C@@]2(C)CC[C@@H](C(C)(C)OC(C)=O)[C@H]12 |  |  | cytopathic effect / MTT |  | 2.9 µM
Nc1nc(=O)n([C@H]2O[C@@H](CO)C=C2F)cc1F | IIIB |  | cytopathic effect | 3 d | 3.6 µM
O=C1Nc2ccc(Cl)cc2[C@@](C#CC2CC2)(C(F)(F)F)[C@H]1OCc1ccncc1 | RF |  |  |  | <0.019 µM
CC(=O)NC(=S)NC12CCC(CC1)Cn1c2nc(C(=O)NCc2ccc(F)c(C)c2)c(O)c1=O | NL4-3 | (delta)nef | luciferase | pseudotyped | <0.01 µM
C[C@H](Cn1cnc2c(N)ncnc21)OCP(=O)(O)O | Clinical isolate | M41L/D67N/K70R/A98G/K101E/M184V/G190A/L210W/T215Y/K219E | recombinant virus assay |  | >0.412 µM
Nc1ncn([C@@H]2CO[C@H](CO)O2)c(=O)n1 | IIIB |  | cytopathic effect / MTT |  | 5 µM
O=C(NCc1cccnc1)C(=O)N/N=C\c1ccc(-c2cccc(Cl)c2)o1 | IIIB |  | p24 |  | <10 µM
O=C1CC(C#CC2CC2)(C(F)(F)F)c2cc(Cl)ccc2N1 | RF |  |  |  | <0.014 µM
CC(C)C1=C2[C@H]3CC[C@@H]4[C@@]5(C)CC[C@H](OC(=O)[C@H]6C[C@@H](C(=O)O)C6(C)C)C(C)(C)[C@@H]5CC[C@@]4(C)[C@]3(C)CC[C@@]2(CCNCC2(NC(=O)c3ccc(Cl)cc3)CNC2)CC1=O | 92HT599 |  | p24 / ELISA |  | <1 µM
O=C1Nc2ccc(Cl)cc2[C@@](C#CC2CC2)(C(F)(F)F)N1 | RF |  |  |  | <0.002 µM
CC(C)C1=C2[C@H]3CC[C@@H]4[C@@]5(C)CC[C@H](OC(=O)[C@H]6C[C@@H](C(=O)O)C6(C)C)C(C)(C)[C@@H]5CC[C@@]4(C)[C@]3(C)CC[C@@]2(CCNCC(C)(C)NC(=O)c2ccc(N3CCN(C)CC3)cc2)CC1=O | 92HT599 |  | p24 / ELISA |  | <1 µM
Cc1nn([C@@H]2CO[C@@H](CO)O2)c(=O)[nH]c1=O | IIIB |  | cytopathic effect / MTT |  | >100 µM
O=C1CO[C@](C#Cc2ccccc2)(C(F)(F)F)c2cc(Cl)ccc2N1 | RF |  |  |  | <0.0243 µM
CC1(C)C=C2C3CCC4[C@@]5(C)CC[C@H](O)C(C)(C)C5[C@H](O)C[C@@]4(C)[C@]3(C)CC[C@@]2(C)CC1 | NL4-3 |  |  |  | 64.36 µM
Nc1nc2c(ncn2[C@H]2CC[C@@H](CO)C2)c(=O)[nH]1 | IIIB |  | cytopathic effect |  | >100 µg/mL
CC1(C)C(=O)CC[C@@]2(C)C1CC[C@]1(C)C2CCC2C3=CC(C)(C)[C@H](O)C[C@]3(C)CC[C@]21C | NL4-3 |  |  |  | 20–100 µM
Nc1ccccc1CO[C@H]1C(=O)Nc2ccc(Cl)cc2[C@@]1(C#CC1CC1)C(F)(F)F | RF |  |  |  | <0.115 µM
Cc1cncc(CN(CCN(C)C)C[C@H](O)[C@@]23CC[C@]4(C)[C@H](CC[C@@H]5[C@@]6(C)CC[C@H](OC(=O)[C@H]7C[C@@H](C(=O)O)C7(C)C)C(C)(C)[C@@H]6CC[C@]54C)C2=C(C(C)C)C(=O)C3)n1 | 92HT599 |  | p24 / ELISA |  | <1 µM
CC1(C)C=C2C3CCC4[C@@]5(C)CCC(=O)C(C)(C)C5[C@H](O)C[C@@]4(C)[C@]3(C)CC[C@@]2(C)CC1 | NL4-3 |  |  |  | 23.8 µM

Again, the opening 5 rows:

structure | strain | changes | method | setting | result
C[C@@H]1O[C@](C#CC2CC2)(C(F)(F)F)c2cc(F)ccc2NC1=O | RF |  |  |  | <0.0052 µM
CC(C)C1=C2[C@H]3CC[C@@H]4[C@@]5(C)CC[C@H](OC(=O)[C@H]6C[C@@H](C(=O)O)C6(C)C)C(C)(C)[C@@H]5CC[C@@]4(C)[C@]3(C)CC[C@@]2([C@@H](O)CNCc2ccc(Cl)cc2OCCN2CCCC2)CC1=O | 92HT599 |  | p24 / ELISA |  | <1 µM
O=C1Nc2ccc(Cl)cc2[C@@](C#CC2CC2)(C(F)(F)F)[C@H]1OCc1ccccn1 | RF |  |  |  | <0.14 µM
Nc1ncn([C@H]2CO[C@H](CO)O2)c(=O)n1 | IIIB |  | cytopathic effect / MTT |  | >100 µM
CC(C)C1=C2[C@H]3CC[C@@H]4[C@@]5(C)CC[C@H](OC(=O)[C@H]6C[C@@H](C(=O)O)C6(C)C)C(C)(C)[C@@H]5CC[C@@]4(C)[C@]3(C)CC[C@@]2([C@@H](O)CNCC(CCN)NC(=O)c2ccc(Cl)cc2)CC1=O | 92HT599 |  | p24 / ELISA |  | <1 µM